The source of these data is patent EP3144007A1 (priority 2015, dated 2017).

Chains of the proteins cited; added tags and fusions are not shown. Residues count along the entry.
UniProt P04958, 865-1315 limits assumed: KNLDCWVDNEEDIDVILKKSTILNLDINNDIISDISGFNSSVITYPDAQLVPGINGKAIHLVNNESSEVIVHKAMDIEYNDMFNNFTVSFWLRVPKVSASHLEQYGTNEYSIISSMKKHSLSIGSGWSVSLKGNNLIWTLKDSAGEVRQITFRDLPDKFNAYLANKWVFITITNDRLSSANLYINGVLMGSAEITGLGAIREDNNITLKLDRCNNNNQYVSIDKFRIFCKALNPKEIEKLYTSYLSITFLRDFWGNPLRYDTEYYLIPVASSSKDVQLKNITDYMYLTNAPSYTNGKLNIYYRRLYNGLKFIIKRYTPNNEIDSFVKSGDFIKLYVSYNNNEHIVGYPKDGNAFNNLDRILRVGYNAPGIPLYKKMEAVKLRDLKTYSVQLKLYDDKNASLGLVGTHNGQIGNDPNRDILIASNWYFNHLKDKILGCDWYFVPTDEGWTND

For this experiment, the target named is Hc-TeNT (Clostridium tetani, UniProt P04958). Nature of the experiment: Dot-blot assay: binding of recombinant Hc-TeNT fragment to peptide attached to a nitrocellulose membrane. Conditions: 10 µg and 20 µg of peptide on nitrocellulose; Hc-TeNT 10 ng/ml; anti poly-Histidine detection.

Regarding `CSCC[C@@H]1NC(=O)CNC(=O)[C@H](CC(N)=O)NC(=O)[C@H](CC(N)=O)NC(=O)[C@H](CCSC)NC(=O)[C@H](Cc2c[nH]cn2)NC(=O)[C@H]([C@@H](C)O)NC(=O)[C@@H]2CCCN2C(=O)[C@H](CC(N)=O)NC(=O)[C@H](CC(=O)O)NC(=O)[C@H](CC(C)C)NC(=O)[C@H](CCC(N)=O)NC(=O)[C@H](CC(C)C)NC(=O)[C@@H](NC(=O)CN)CSSC[C@@H](C(=O)N[C@@H](CC(N)=O)C(=O)N[C@@H](CC(N)=O)C(=O)NCC(=O)O)NC(=O)[C@H](Cc2c[nH]cn2)NC(=O)[C@H]([C@@H](C)O)NC(=O)[C@@H]2CCCN2C(=O)[C@H](CC(N)=O)NC(=O)[C@H](CC(=O)O)NC(=O)[C@H](CC(C)C)NC(=O)[C@H](CCC(N)=O)NC(=O)[C@H](CC(C)C)NC1=O` [d5 peptide], the “Hc-TeNT binding to the membrane-attached peptide” value is on record as “able to bind specifically”.
